This series in a line: general procedure: Fmoc solid-phase peptide synthesis; Rink amide resin. As to conditions: whole synthesis.

For AAPAFASG-OH, the isolated yield was found to be 31% and the “final HPLC purity” value is recorded as >98%.

On to NIAAYPH-OH, for which the isolated yield is recorded as 41% and the “final HPLC purity” value is listed as >98%.

For the substance RGTAPGGY-OH, the isolated yield turned out to be 25% and the “final HPLC purity” value is listed as >98%.

For the substance GSAFAPAA-OH, the isolated yield is 43% and the “final HPLC purity” value was > 98%.

Turning to NAYKWPNI-OH, the isolated yield was 30% and the “final HPLC purity” value was >98%.

As to GDLWILRG-OH, the isolated yield came to 34% and the “final HPLC purity” value is on record as >98%.

For GKPGRGDL-OH, the isolated yield is recorded as 27% and the “final HPLC purity” value is >98%.

As to GYGYTSNAY-OH, the isolated yield came to 38% and the “final HPLC purity” value is >98%.

These data come from PMC6629785 (Frontiers in Chemistry, 2019).
